Data: patent publication US6001818A, “Use of 2',3'-dideoxycytidin-2'-ene (2'- ,3'-dideoxy-2'3'-didehydrocytidine) in treating patients infected with retroviruses” (Yale University, priority 1991, dated 1999)

System: human immunodeficiency virus (HIV or HTLV-III/LAV)
Assay: Reverse transcriptase assay, HIV-infected mitogen stimulated human peripheral blood mononuclear cells
Settings: for % Inhibition (reverse transcriptase assay): day 5 after infection

Compound	% Inhibition (reverse transcriptase assay) (0.001 μM) [%]	% Inhibition (reverse transcriptase assay) (0.01 μM) [%]	% Inhibition (reverse transcriptase assay) (0.1 μM) [%]	% Inhibition (reverse transcriptase assay) (1.0 μM) [%]	inhibitory activity (reverse transcriptase assay) (conclusion from Table 3 data)
Nc1ccn([C@H]2C=C[C@@H](CO)O2)c(=O)n1 [2',3'-dideoxycytidin-2'-ene]	29	61	66	92	confirm the inhibitory activity
Nc1ccn([C@H]2CC[C@@H](CO)O2)c(=O)n1 [2',3'-dideoxycytidine, reference compound]	5.7	37	95	93	
